A mixed list of measured activities; the numbers were collected in NIAID ChemDB.

Shared fields: tests in culture

ECn is the concentration giving n% inhibition of infection, replication or growth.

SMILES | agent | strain | cell line | endpoint | tested at | value
Clc1ccc(C2COc3ccccc3C2)cc1 | Poliovirus | IB (TYPE 2) | HEP-2 | inhibition | 10 µM | 0%
CC(=O)c1ccc2c(c1)Sc1ccccc1O2 | Poliovirus | TYPE 3 | BSC-1 | inhibition | 0.4 µg/mL | 99%
c1ccc(C2COc3ccccc3C2)cc1 | Poliovirus | TYPE 2 | HEP-2 | EC50 | - | >10 µM
Nc1ccn([C@@H]2C=C(CO)[C@@H](O)[C@H]2O)c(=O)n1 | Variola virus | 7124 | - | EC50 | - | 0.08 µg/mL
CCC(=O)c1ccc2c(c1)Sc1ccccc1O2 | Poliovirus | TYPE 3 | BSC-1 | inhibition | 2 µg/mL | 62%
CC[C@@H](C(C)C)[C@@H](O)[C@H](O)[C@@H](C)[C@H]1CC[C@H]2[C@@H]3CC(=O)[C@@]4(O)C[C@H](O)[C@H](O)C[C@]4(C)[C@H]3CC[C@]12C | Junin virus | IV4454 | VERO | EC90 | - | 4 µM
Clc1ccc(C2=Cc3ccccc3OC2)cc1 | Poliovirus | SABIN (TYPE 2) | HEP-2 | inhibition | 10 µM | 20%
CC[C@@H](C(C)C)[C@H](O)[C@@H](O)[C@@H](C)[C@H]1CC[C@H]2[C@@H]3CC(=O)[C@H]4C[C@@H](OC(C)=O)CC[C@]4(C)[C@H]3CC[C@]12C | Junin virus | IV4454 | VERO | EC90 | - | 3.6 µM
CC(O)c1ccc2c(c1)S(=O)c1ccccc1O2 | Poliovirus | TYPE 3 | BSC-1 | inhibition | 2 µg/mL | 15%
Cc1nc2c(N)ncnc2n1[C@@H]1O[C@H](CO)[C@@H](O)[C@H]1O | Cowpox virus | Brighton | VERO | EC50 | - | >1000 µM
Cc1ccnc(SCc2cccc(CSc3nc4ccccc4s3)n2)n1 | Poliovirus | - | - | MIC | - | 11 µM
N=c1c2ncn([C@@H]3O[C@H](CO)[C@@H](O)[C@H]3O)c2ncn1OCc1cc(F)cc(F)c1 | Monkeypox virus | - | LLC-MK2 | EC50 | - | >100 µg/mL
CC[C@@H](C(C)C)[C@@H](O)[C@H](O)[C@@H](C)[C@H]1CC[C@H]2[C@@H]3CC(=O)[C@@]4(O)C[C@@H](Br)CC[C@]4(C)[C@H]3CC[C@]12C | Junin virus | IV4454 | VERO | EC90 | - | 6.6 µM
Nc1nc2ncn(O)c2c(=O)[nH]1 | Japanese encephalitis virus | Nakayama | BHK | EC50 | - | 30 µg/mL
O=C1c2ccccc2C(=O)N1Cc1cc2c(cc1O)Sc1ccccc1N2C(Nc1ccccc1)c1ccc(-c2ccccc2)cc1 | Japanese encephalitis virus | P20778 | - | EC50 | - | 7.8 µg/mL
CC(=O)c1cccc(Oc2ccccc2)c1 | Poliovirus | TYPE 3 | BSC-1 | inhibition | 10 µg/mL | 100%
CC(C)NS(=O)(=O)OC[C@H]1O[C@@H](n2ccc(=O)[nH]c2=O)C2OC(C)(C)OC21 | African swine fever virus | - | VERO | EC50 | - | 100 µg/mL
CC[C@@H](C(C)C)[C@@H](O)[C@H](O)[C@@H](C)[C@H]1CC[C@H]2[C@@H]3CC(=O)[C@@]4(O)C[C@@H](OC(C)=O)CC[C@]4(C)[C@H]3CC[C@]12C | Junin virus | IV4454 | VERO | EC50 | - | 2.5 µM
Cc1cn([C@@H]2O[C@H](CO)[C@@H](O)[C@@H]2O)c(=O)[nH]c1=O | Cowpox virus | Brighton | VERO | EC50 | - | 123 µM
CC[C@@H](C(C)C)[C@@H](O)[C@H](O)[C@@H](C)[C@H]1CC[C@H]2[C@@H]3CC(=O)[C@H]4C[C@H](O)[C@H](O)C[C@]4(C)[C@H]3CC[C@]12C | Junin virus | IV4454 | VERO | EC50 | - | 11.5 µM
CC(C)(O)c1ccc2c(c1)Sc1ccccc1O2 | Poliovirus | TYPE 3 | BSC-1 | inhibition | 2 µg/mL | 22%
Cc1cn([C@@H]2O[C@H](CO)[C@@H](O)[C@@H]2F)c(=O)[nH]c1=O | Cowpox virus | Brighton | VERO | EC50 | - | 19 µM
CC(O)c1ccc2c(c1)Sc1ccccc1S2 | Poliovirus | TYPE 3 | BSC-1 | inhibition | 2 µg/mL | 24%
Nc1nc(=O)n([C@@H]2C=C(CO)[C@@H](O)[C@H]2O)cc1Cl | Variola virus | Bangladesh 1975 | - | EC50 | - | 22.8 µg/mL
Nc1nccc2c1ncn2[C@@H]1O[C@H](CO)[C@@H](O)[C@H]1O | Newcastle disease virus | - | Chick embryo cells | inhibition | 300 µM | 43.2%
N=C(N)c1ncn([C@@H]2O[C@H](CO)[C@@H](O)[C@H]2O)n1 | Rift valley fever virus | - | - | EC50 | - | 1–100 µM
Nc1ccn(C[C@@H](CO)OCP(=O)(O)O)c(=O)n1 | Variola virus | Isolate Brazil Garcia | LLC-MK2 | EC50 | - | 2.5 µg/mL
CCC(C)CC(C)CCCCCCCCC(=O)N[C@H]1C[C@@H](O)[C@H](NCCN)NC(=O)[C@@H]2[C@@H](O)CCN2C(=O)[C@H]([C@H](O)CCN)NC(=O)[C@H]([C@H](O)[C@@H](O)c2ccc(O)cc2)NC(=O)[C@@H]2C[C@@H](O)CN2C(=O)[C@H]([C@@H](C)O)NC1=O | Histoplasma capsulatum | 20 isolates | - | Mean MIC | - | 16.6 µg/mL
Clc1ccc(C2CCc3ccccc3O2)c(Cl)c1 | Poliovirus | TYPE 2 | HEP-2 | EC50 | - | >10 µM
CC[C@@H](C(C)C)[C@H](O)[C@@H](O)[C@@H](C)[C@H]1CC[C@H]2[C@@H]3CC(=O)[C@H]4C[C@H](O)[C@H](O)C[C@]4(C)[C@H]3CC[C@]12C | Junin virus | IV4454 | VERO | EC90 | - | 10 µM
Nc1nccc2c1ncn2[C@@H]1C=C(CO)[C@@H](O)[C@H]1O | Variola virus | Isolate Yamada | VERO | EC50 | - | 0.04 µg/mL
CC(=O)N[C@H]1[C@H]([C@H](O)[C@H](O)CO)OC(C(=O)O)=C[C@@H]1N=C(N)N | Influenza A virus | H7N2 A/turkey/England/192-329/79 | MDCK | EC90 | - | ≥1 µM
C[C@@]1(O)[C@H](O)[C@@H](COP(=O)(O)OP(=O)(O)OP(=O)(O)O)O[C@H]1n1ccc2c(N)ncnc21 | Western equine encephalitis virus | - | VERO | EC50 | - | 200 µM
CNC(=O)OC(C)c1ccc2c(c1)Sc1ccccc1O2 | Poliovirus | TYPE 3 | BSC-1 | inhibition | 0.4 µg/mL | 24%
Nc1ncc2c(ncn2COC(CO)CO)n1 | Cowpox virus | Brighton | VERO | EC50 | - | 35 µM
COc1ccc(-c2ccc(C(Nc3ccccc3)N3c4ccccc4Sc4cc(O)c(CCn5c(-c6ccccc6)nc(=O)c6ccccc65)cc43)cc2)cc1 | Japanese encephalitis virus | P20778 | - | EC50 | - | 62.5 µg/mL
Nc1nc(=O)n([C@@H]2O[C@H](CO)[C@@H](O)[C@@H]2O)cc1F | Cowpox virus | Brighton | C1271 | EC50 | - | 0.11 µM
CC1(C)OC2C(O1)[C@@H](COS(=O)(=O)NC(=O)O[C@H]1O[C@H](COCc3ccccc3)[C@@H](OCc3ccccc3)[C@H](OCc3ccccc3)[C@H]1OCc1ccccc1)O[C@H]2n1ccc(=O)[nH]c1=O | African swine fever virus | - | VERO | EC50 | - | 0.1 µg/mL

5 of the rows above, restated:

SMILES | agent | strain | cell line | endpoint | tested at | value
CC[C@@H](C(C)C)[C@@H](O)[C@H](O)[C@@H](C)[C@H]1CC[C@H]2[C@@H]3CC(=O)[C@@]4(O)C[C@H](O)[C@H](O)C[C@]4(C)[C@H]3CC[C@]12C | Junin virus | IV4454 | VERO | EC90 | - | 4 µM
CC[C@@H](C(C)C)[C@@H](O)[C@H](O)[C@@H](C)[C@H]1CC[C@H]2[C@@H]3CC(=O)[C@@]4(O)C[C@@H](OC(C)=O)CC[C@]4(C)[C@H]3CC[C@]12C | Junin virus | IV4454 | VERO | EC50 | - | 2.5 µM
Nc1nc2ncn(O)c2c(=O)[nH]1 | Japanese encephalitis virus | Nakayama | BHK | EC50 | - | 30 µg/mL
CC1(C)OC2C(O1)[C@@H](COS(=O)(=O)NC(=O)O[C@H]1O[C@H](COCc3ccccc3)[C@@H](OCc3ccccc3)[C@H](OCc3ccccc3)[C@H]1OCc1ccccc1)O[C@H]2n1ccc(=O)[nH]c1=O | African swine fever virus | - | VERO | EC50 | - | 0.1 µg/mL
O=C1c2ccccc2C(=O)N1Cc1cc2c(cc1O)Sc1ccccc1N2C(Nc1ccccc1)c1ccc(-c2ccccc2)cc1 | Japanese encephalitis virus | P20778 | - | EC50 | - | 7.8 µg/mL

Inhibition is in % at the dose shown (toxicity tests: loss of growth or viability). Rows are shuffled and stem from different studies. Two numbers with a dash give a range or band. Blank or dashed fields: not listed here.